Source: US20260015372A1, “Organophosphorous Compounds and Uses Thereof” (priority 2022, published 2026)

Sequences of proteins named here, by UniProt entry; tags and fusion partners are left off. Residues count along the entry.
UniProt P06276, 29-602 limits assumed: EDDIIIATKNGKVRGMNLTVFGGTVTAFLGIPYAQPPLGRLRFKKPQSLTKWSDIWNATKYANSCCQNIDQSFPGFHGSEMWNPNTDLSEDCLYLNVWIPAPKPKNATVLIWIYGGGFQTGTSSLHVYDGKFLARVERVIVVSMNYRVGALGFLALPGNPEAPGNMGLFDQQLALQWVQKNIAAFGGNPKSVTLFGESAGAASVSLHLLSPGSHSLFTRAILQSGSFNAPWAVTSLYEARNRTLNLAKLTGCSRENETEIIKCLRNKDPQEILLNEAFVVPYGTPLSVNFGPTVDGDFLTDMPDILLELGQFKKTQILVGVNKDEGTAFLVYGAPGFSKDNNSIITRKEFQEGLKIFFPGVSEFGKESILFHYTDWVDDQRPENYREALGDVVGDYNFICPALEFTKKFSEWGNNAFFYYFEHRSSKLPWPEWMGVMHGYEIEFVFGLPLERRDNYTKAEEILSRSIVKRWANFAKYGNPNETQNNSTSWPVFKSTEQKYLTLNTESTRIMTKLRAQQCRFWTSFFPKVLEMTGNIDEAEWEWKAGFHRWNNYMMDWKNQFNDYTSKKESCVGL

Biological target: BCHE (Homo sapiens (Human), UniProt P06276)
Assay: biochemical
Experimental: The compounds referred to herein have BCHE inhibitory activity. To determine the inhibitory values, enzymes were incubated for 2 hours in the presence of varying concentrations of compound prior to activity measurements. Activity is then measured colorimetrically upon addition of substrate and Ellman's reagent.

CCCCOP(=O)(OCCCC)SCC(=O)NCCCCCCCNC(=O)CSP(=O)(OCCCC)OCCCC [Compound 81, S′,S′-(heptane-1,7-diylbis(azenediyl)) bis(2-oxoethane-2,1-diyl) O,O,O′,O′-Tetrabutyl Diphosphorodithioate]
Ki: 100 nM

CCCCOP(=O)(OCCCC)SCC(=O)NCCCCCCCCNC(=O)CSP(=O)(OCCCC)OCCCC [Compound 82, S′,S′-(octane-1,8-diylbis(azenediyl)) Bis(2-oxoethane-2,1-diyl) O,O,O′,O′-Tetrabutyl Diphosphorodithioate]
Ki: 140 nM

CCCCOP(=O)(OCCCC)SCC(=O)NCCCCCCNC(=O)CSP(=O)(OCCCC)OCCCC [Compound 80, S′,S′-(hexane-1,6-diylbis(azenediyl)) Bis(2-oxoethane-2,1-diyl) O,O,O′,O′-Tetrabutyl Diphosphorodithioate]
Ki: 67 nM
